US4333941A, “Inhibition of enveloped viruses with phenyl ketones” (The Dow Chemical Company, priority 1977, dated 1982)
Counter-ions that a name gives are not always drawn.

Columns and labels:
HSV-2 = experiment: In vivo treatment of genital cutaneous mucosa infected with HSV-2 (Example 8); conditions: 2 percent in 5 percent aqueous ethanol, topical
HSV-1 = conditions: guinea pig, in vivo

With CCCCOc1ccc(C(=O)CCN2CCCCC2)cc1 [Dyclonine . HCl, 4-n-butoxy-β-(1-piperidyl)-propiophenone hydrochloride] as the compound, how does the “irritation or other adverse effects” value (HSV-2) read?
Its value is “No irritation or other adverse effects attributable to the dyclonine treatment were noted”.

What about the skin irritation (HSV-1) of the same compound?
The skin irritation was “skin irritation attributed to the vehicle was observed in both placebo and dyclonine treated animals”.
